# Biological target: human Kv1.3 channel (human), P22001
# Assay: cell-based or functional assay
Binder,"Analog IC50 Divided by Ala-1 IC50, IFNg","Analog IC50 Divided by Ala-1 IC50, IL2","Average IC50 (nM) IL-2, thapsigargin-induced, 50% human whole blood","Average IC50 (nM) IFNg, thapsigargin-induced, 50% human whole blood",WB/IFNg IC50 (human whole blood),WB/IL-2 IC50 (human whole blood)
GVIINVKCKISRACLEPCKKAGMRFGKCMNGKCHCTPK (modifications not checked) [OSK1 analog Ala-13],1.11 fold,1.21 fold,–,–,–,–
GVIINVKCKISRQCAEPCKKAGMRFGKCMNGKCHCTPK (modifications not checked) [OSK1 analog Ala-15],0.9 fold,0.88 fold,0.107 nM,–,–,–
GVIINVKCKISRQCLAPCKKAGMRFGKCMNGKCHCTPK (modifications not checked) [OSK1 analog Ala-16],0.84 fold,0.83 fold,0.101 nM,0.101 nM,–,–
GVIINVKCKISRQCLEACKKAGMRFGKCMNGKCHCTPK (modifications not checked) [OSK1 analog Ala-17],1.45 fold,1.42 fold,–,–,–,–
GVIINVKCKISRQCLEPCAKAGMRFGKCMNGKCHCTPK (modifications not checked) [OSK1 analog Ala-19],1.36 fold,1.33 fold,–,–,–,–
GVIINVKCKISRQCLEPCKAAGMRFGKCMNGKCHCTPK (modifications not checked) [OSK1 analog Ala-20],3.17 fold,3.11 fold,–,–,–,–
GVIINVKCKISRQCLEPCKKAAMRFGKCMNGKCHCTPK (modifications not checked) [OSK1 analog Ala-22],59.3 fold,58.1 fold,7.09 nM,7.09 nM,–,–
GVIINVKCKISRQCLEPCKKAGARFGKCMNGKCHCTPK (modifications not checked) [OSK1 analog Ala-23],2.3 fold,2.25 fold,–,–,–,–
GVIINVKCKISRQCLEPCKKAGMRAGKCMNGKCHCTPK (modifications not checked) [OSK1 analog Ala-25],25.8 fold,25.2 fold,3.08 nM,3.08 nM,–,–
GVIINVKCKISRQCLEPCKKAGMRFGACMNGKCHCTPK (modifications not checked) [OSK1 analog Ala-27],13.2 fold,28.3 fold,–,–,–,–
GVIINVKCKISRQCLEPCKKAGMRFGKCANGKCHCTPK (modifications not checked) [OSK1 analog Ala-29],2.44 fold,3.66 fold,–,–,–,–
GVIINVKCKISRQCLEPCKKAGMRFGKCMAGKCHCTPK (modifications not checked) [OSK1 analog Ala-30],5.33 fold,7.96 fold,–,–,–,–
GVIINVKCKISRQCLEPCKKAGMRFGKCMNGKCACTPK (modifications not checked) [OSK1 analog Ala-34],0.48 fold,0.59 fold,–,–,–,–
"GVIINVKCKISPQCLKPCKDAGIRFGKCINGKCACTPK (modifications not checked) [OSK1 analog Pro-12, Lys-16, Asp-20, Ile-23, Ile-29, Ala-34]",4.29 fold,4.21 fold,–,–,–,–
GVIINVKCKISRQCLEPCKKAGMRFGKCMNGACHCTPK (modifications not checked) [OSK1 K32A],–,–,–,–,0.034 nM,0.0413 nM
GVIINVKCKISRQCLEPCKKAGMRFGKCMNGKCHCAPK (modifications not checked) [OSK1 T36A],–,–,–,–,0.724 nM,0.728 nM
GVIINVKCKISRQCLEPCKKAGMRFGKCMNGKCHCTAK (modifications not checked) [OSK1 P37A],–,–,–,–,0.85 nM,0.956 nM
GVIINVKCKISRQCLEPCKKAGMRFGKCMNGKCHCTPA (modifications not checked) [OSK1 K38A],–,–,–,–,0.343 nM,0.221 nM
GVIINVKCKISRQCLEPCKKAGMEFGKCMNGKCHCTPK (modifications not checked) [OSK1 R24E],–,–,–,–,9.54 nM,7.16 nM
GVIINVKCKISRQCLEPCKKAGMRFGKCMEGKCHCTPK (modifications not checked) [OSK1 N30E],–,–,–,–,24.4 nM,14 nM
AVIINVKCKISRQCLEPCKKAGMRFGKCMNGKCHCTPK (modifications not checked) [OSK1 analog Ala-1],1 fold,1 fold,–,–,–,–
GAIINVKCKISRQCLEPCKKAGMRFGKCMNGKCHCTPK (modifications not checked) [OSK1 analog Ala-2],0.87 fold,0.72 fold,–,0.103 nM,–,–
GVAINVKCKISRQCLEPCKKAGMRFGKCMNGKCHCTPK (modifications not checked) [OSK1 analog Ala-3],0.83 fold,0.72 fold,–,–,–,–
GVIANVKCKISRQCLEPCKKAGMRFGKCMNGKCHCTPK (modifications not checked) [OSK1 analog Ala-4],0.73 fold,0.91 fold,–,–,–,–
GVIIAVKCKISRQCLEPCKKAGMRFGKCMNGKCHCTPK (modifications not checked) [OSK1 analog Ala-5],0.56 fold,0.56 fold,–,0.067 nM,–,–
GVIINAKCKISRQCLEPCKKAGMRFGKCMNGKCHCTPK (modifications not checked) [OSK1 analog Ala-6],0.67 fold,0.6 fold,–,0.0805 nM,–,–
GVIINVACKISRQCLEPCKKAGMRFGKCMNGKCHCTPK (modifications not checked) [OSK1 analog Ala-7],0.49 fold,0.55 fold,–,–,–,–
GVIINVKCAISRQCLEPCKKAGMRFGKCMNGKCHCTPK (modifications not checked) [OSK1 analog Ala-9],0.6 fold,0.65 fold,–,–,–,–
GVIINVKCKASRQCLEPCKKAGMRFGKCMNGKCHCTPK (modifications not checked) [OSK1 analog Ala-10],0.25 fold,0.41 fold,0.05 nM,–,–,–
GVIINVKCKISAQCLEPCKKAGMRFGKCMNGKCHCTPK (modifications not checked) [OSK1 analog Ala-12],1.3 fold,1.01 fold,–,–,–,–

# Reference: patent US20090281028A1
